Results published in patent publication US20180016324A1, “Anti-Zika Virus Antibodies and Methods of Use” (Regeneron, published 2018).
Where a chain is given by its changes, count along the chain named.

B1: H4H25708N (antibody, V domains shown)
VH: EVQLLESGGDLVQPGGSLRLSCAASGFTFSSYAMSWVRQAPGKGLEWVSAISVSGDSTYYADSVKGRFTISRDNSKNTLYLQMNSLRAEDTAVYYCAKDRGYTWNYYYYGMDVWGQGTTVTVSS
VL: not shown
B2: H4H25640P (antibody, V domains shown)
VH: QVQLVESGGGVVQPGRSLRLSCAASGFTFSYYGMHWVRQAPGKGLEWVAVILYDGSNKFYSDSVKGRFTISRDNSRNTLYLQMNSLRLEDTAVYYCAKDYGGRFDYWGQGTLVTVSS
VL: EIVLTQSPGTLSLSSGERATLSCRASQSVSNKYLAWYQQKPGQVPRLLIYGASNRATGIPDRFSGSGSGTDFTLTINRLEPEDFAVFYCQQYGSTPSTFGQGTKVEIK
B3: H4H25591P (antibody, V domains shown)
VH: B2 VH with Y32S, L52S, S56I, F59Y, S61A, R76K, L88P, Y100R, Y106P
VL: DIQMTQSPSSLSASVGDRVTITCRASQGISNYLAWYQQKPGKVPNLLIYGASTLHSGVPSRFSGSGSGTDFTLTISSLQPADVATYYCQKYNSAPLTFGGGTKVEIK
B4: H4H25592P (antibody, V domains shown)
VH: B2 VH with Y32S, L52S, F59Y, S61A, R76N, T78I, L88A, Y100W, Y106P
VL: B3 VL with N31S, K39I, N45K, G50A
B5: H4H25710N (antibody, V domains shown)
VH: EVQLLESGGGLVQPGGSLRLSCAASGFTVSNNYMSWVRQAPGKGLEWVSVIYSGGRTNYGDSVKGRFTISRDNSKNTLYLQMNSLRAEDTAVYYCARENYDFWSGDPYGWDVWGQGTTVTVSS
VL: DIQMTQSPSSLSASVGDRVTITCRASQDISNYLAWFQQKPGKAPKSLIYGASSLQRGVPSKFRGSGSGTDFTLTISSLQPEDFASYYCQQYNSYPYTFGQGTKLEIK
B6: H2aM25710N (antibody, V domains shown)
VH: B5 VH
VL: B5 VL
B7: H2aM25711N (antibody, V domains shown)
VH: B5 VH with L5V, N31S
VL: B5 VL with R63S, S85T
B8: H2aM25709N (antibody, V domains shown)
VH: B5 VH with L5V, N31S
VL: B5 VL with R63S, S85T
B9: H4H25587P (antibody, V domains shown)
VH: EVQLVESGGGLVQPGRSLTLSCAASGFTFDDYVMHWVRQAPGKGLEWVSGISWNSDTIDYADSVKGRFTISRDNAKNSLYLQMNSLRAEDTALYYCAKDRRSWYGGYFDYWGQGTLVTVSS
VL: B3 VL with N31S, N45K, G50A, H55Q, T72S, A81E
B10: H4H25619P (antibody, V domains shown)
VH: QVQLVESGGGVVQPGRSLRLSCTASGFTFSTYGMHWVRHVPGKGLEWVAIVWYDGSDKSYAASVKGRFTISRDNSKNTLFLQMNSLRAEDTAVYYCARQGTYYYYGMDVWGQGTTVTVSS
VL: DIQMTQSPSSLSASVGDRVTITCRSSQTITNYLNWYQQRPGKAPKLLIYAASSLQSGVPSRFSGSGSGTDFTLTISSLQPEDFATYYCQQSYSTPPITFGQGTKLEIKR
B11: H4H25703N (antibody, V domains shown)
VH: QVQLVESGGGVVQPGRSLRLSCAASGFTFNYYGMHWVRQAPGKGLEWVAVISYDGTNKYYADSVKGRFTTSRDNSKNTLYLQMNSLRAEDTALYYCARDRGGRFDYWGQGIQVTVSS
VL: EIVLTQSPDTLSLSPGERATLSCRASQSVSSNYLAWYQQKPGQAPRLLIYGASSRATGIPDRFSGSGSGTDFTLTISRLEPEDFAVYYCQRYGTSPLTFGGGTKVEIKR
B12: H4H25630P (antibody, V domains shown)
VH: QVQLVQSGAEVKRPGASVKVSCKASDYTFTDYGISWVRQAPGQGLEWMGWFNTYNGNTNYAQKFQGRITMTTDTSTSTAYMELRSLRSDDTAIYYCARDWGLHYFENWGQGTLVTVSS
VL: EIVLTQSPGTLSLSPGERATLSCRASQSVRNSYLAWYQQKPGQAPRLLIYGASSRDTGIPDRFSGSGSGTDFTLTISRLEPEDFAVYYCQQYGRSPWTFGQGTKVEIK
B13: H4H25704N (antibody, V domains shown)
VH: QVQLVESGGGVVQSGRSLRLSCAASGFTFIYYGMHWVRQAPGKGLEWVAVISYDGSDRYYADSVKGRFTISRDDSKNTLYLQMNSLRPEDTAVYYCAKDRGGRFDYWGQGTLVTVSS
VL: B12 VL with R30N, S32N, D56A, S64G, S66G, Q91R, R94N, W97L, Q101G
B14: H4H25637P (antibody, V domains shown)
VH: QLQLQESGPGLVKPSETLSLTCTVSGDSISSSNYFWGWIRQPPGKGLEWIGNIYYSGDTYYNPSLKSRVTMSVDTSKKQFSLKLRSVTAADTAVYYCARGRPYYDFWSGYFDYWGQGTLVTVSS
VL: B12 VL with S22P, R30S, N31S, D56A, S64R, R94T, S95A
B15: H4H25622P (antibody, V domains shown)
VH: QVQLVESGGGVVQPGRSLRLSCAASGFTFSSYGMHWVRQAPGKGLEWLAIIWYDGTNKQYVDSVKGRFTISRDNSKNTLYLQLNSLRAEDTAVYYCARQDFYYYYGMDVWGQGTTVTVSS
VL: not shown
B16: H4H25566P (antibody, V domains shown)
VH: QVQLQESGPGLVKPSQTLSLTCTVSGGSISSGGYYWSWIRQHPGKGLEWIGYIYYSGSTYYNPSLKSRITISIDTSKNQFSLKLTSVTAADTAVYYCARGQQLLSFDYWGQGTLVTVSS
VL: DIQMTQSPSSVSASVGDRVTITCRASQGISRWLAWYQLKPGKPPTPLIYAASSLQSGAPSRFSGRGSGTDFTLTISSLQPEDFATYYCQQANSFPYTFGQGTKLEIK
B17: H4H25617P (antibody, V domains shown)
VH: EVQLVESGGGLVQPGGSLRLSCSASGFTFTTYAMSWVRQAPGRGLEWVSSISGTGVSTYYADSVKGRFTISRDNSKNALYLQMNSLTAEDTAVYYCAKDSGTYHWGQGTLVTVSS
VL: EIVLTQSPATLSLSPGERATLSCRASQSVDSYLAWYQQKPGQAPRLLIYDASNRATGIPARFSGSGSGTDFTLTISSLESEDFAVYYCQQRRNWPQFTFGGGTKVEIK
B18: H4H25633P (antibody, V domains shown)
VH: EVQLVESGGGLVQPGRSLRLSCAASGFTFDDYAIHWVRQAPGKGLEWVSGISWNSGYLGYADSVKGRFTISRDNAKNSLYLQMNSLRAEDTAFYYCAKDVAWGSVRHVFEIWGQGTMVTVSS
VL: EIVLTQSPGTLSLSPGERATLSCRASQTITGNQLAWYQQKPGQAPRLLIYFTSSRATGIPDRFSGSGSGTDFSLTISRLEPEDFAVYFCQQFGYSPWTFGQGTKVEIK
B19: H4H25626P (antibody, V domains shown)
VH: QVQLVESGGGVVQPGRSLRLSCAASGFTFSSYGMHWVRQAPGKGLEWVALIWYDGSDKHYVDSMKGRFTISRDNSKNTLYLQMNSLRADDTAVYYCARQAYYFYYGMDVWGQGTTVTVSS
VL: not shown
B20: H4H25598P (antibody, V domains shown)
VH: EVQLVESGGGLVQPGGSLRLSCAASGFTVSSNYMSWVRQAPGSGLEWVSVIYSGGITHYIGSVKGRFTISRHNSKNTLYLQMNSLRAEDTAMYYCARERYSGITGNPYGFDFWGQGTMVTVSS
VL: DIQLTQSPSFLSASVGDRVTITCWASQDISSYLAWYQQKPGIAPKLLIYSASTLQSGVPSSFSGSGSGTEFTLTISSLQPEDFATYYCQQLNIYPFTFGPGTKVDIK
B21: H4H25602P (antibody, V domains shown)
VH: B20 VH with I60V, G61D, F112I
VL: B20 VL with S50A, S61R

Molecular target: T1, ZIKV prM/E polyprotein on virus-like particles (VLPs) from HEK293T/17 cells (Zika virus, UniProt A0A024B7W1 123-795)
T1 construct: also called ZIKV prM/E VLPs; Zika prM/E VLPs
Assay: MSD ECL, VLPs on plate

Binder | Ratio of RLU Zika VLP/VSV G VLP at 11.1 nM
B1 | 4
B2 | 2
B3 | 3
B4 | 7
B5 | 13
B6 | 107
B7 | 263
B8 | 244
B9 | 14
B10 | 7
B11 | 8
B12 | 9
B13 | 4
B14 | 9
B15 | 7
B16 | 6
B17 | 8
B18 | 9
B19 | 10
B20 | 7
B21 | 5
